Results of unrelated studies side by side (data: NIAID ChemDB).

Common to all: growth or infection tests; species: Mycobacterium tuberculosis

Inhibition is in % at the dose shown (toxicity tests: loss of growth or viability). Fold resistance: result on the changed form divided by that on wild type. MIC bound: limit read from a one-dose screen. Rows are shuffled and stem from different studies. ECn is the concentration giving n% inhibition of infection, replication or growth. MIC50, MIC90 and the like: level of inhibition, or share of isolates inhibited. Blank or dashed fields: not listed here.

smiles,strain or isolate,mutations,read by,conditions,endpoint,dose,result
O=C(NC(=O)c1c(F)cccc1F)Nc1cccc(Oc2ncc(Cl)cn2)c1,H37Rv,-,BACTEC,-,MIC bound,-,>12.5 µg/mL
CC(=O)c1cc([N+](=O)[O-])c2nc(C3CCCC3)ccc2c1C1CCCC1,H37Rv,-,-,-,MIC,-,>6.25 µg/mL
CCc1nc2ccccc2n1CCCCSc1ccccc1,H37Rv,WT,turbidity / fluorescence,-,MIC90,-,20 µM
NC[C@@H]1O[C@H](O[C@H]2[C@@H](O)[C@H](O[C@@H]3[C@@H](O)[C@H](N)C[C@H](N)[C@H]3O[C@H]3O[C@H](CO)[C@@H](O)[C@H](O)[C@H]3N)O[C@@H]2CO)[C@H](N)[C@@H](O)[C@@H]1O,MTB17 (INH RIF-R),-,-,-,MIC,-,<0.19 µg/mL
C[C@H]1COc2c(N3CCN(C)CC3)c(F)cc3c(=O)c(C(=O)O)cn1c23,206 isolates (susceptible),-,-,-,MIC50,-,0.5 µg/mL
NNC(=O)c1ccncc1,Clinical isolate 8600,Rifampicin- and isoniazid-resistant,broth dilution,-,MIC,-,>10 µM
CN(C)CC1CCC/C(=C\c2ccc(OC(=O)/C=C/c3ccc(F)cc3)cc2)C1=O,H37Rv,-,-,-,EC50,-,<12.5 µg/mL
CCc1nc2ccccc2n1CCCCOc1ccc(Cl)cc1C,H37Rv,QcrB M342T,turbidity / fluorescence,-,MIC90,-,>100 µM
O=C(O)C(=O)O.OC(CNCCc1ccccc1)CN1c2ccccc2Sc2ccccc21,STB-825,-,resazurin,-,MIC,-,4 µg/mL
CCCCCOc1ccc(NC(=O)OCCN2CCCCCC2)cc1,My 331/88,-,-,-,MIC,-,32 µM
Cc1cc(=O)n2c(n1)sc1ccc3ccccc3c12,H37Rv,-,resazurin,-,MIC bound,-,>6.25 µg/mL
CCCCOc1ccccc1NC(=O)OCCN(C)C,My 331/88,-,-,-,MIC,-,500 µM
NNC(=O)c1ccncc1,STB-825,-,resazurin,-,MIC,-,0.0625 µg/mL
O=C(Nc1ccc(C(F)(F)F)cc1[N+](=O)[O-])C(=O)Nn1c(=S)[nH]c2ccccc2c1=O,H37Rv,-,BACTEC,-,MIC bound,-,>12.5 µg/mL
CCCCCOc1ccccc1NC(=O)OCCN(C)C,My 331/88,-,-,-,MIC,-,125 µM
Cc1nn(C(=O)c2ccc(Cl)cc2)c2c1C(c1ccccc1)SC(N)=N2,H37Rv,-,resazurin,-,inhibition,6.25 µg/mL,23%
CC(C)c1cc(C(C)C)c2cccc([N+](=O)[O-])c2n1,H37Rv,-,-,-,MIC,-,>6.25 µg/mL
CO[C@H]1/C=C/O[C@@]2(C)Oc3c(C)c(O)c4c(O)c(c(/C=N/N5CCN(C/C=C/c6ccccc6)CC5)c(O)c4c3C2=O)NC(=O)/C(C)=C\C=C\[C@H](C)[C@H](O)[C@@H](C)[C@@H](O)[C@@H](C)[C@H](OC(C)=O)[C@@H]1C,27 (rifampin-resistant),-,-,-,MIC,-,0.1 µg/mL
CCOC(=O)/C(N=Nc1ccc(-c2n[nH]c(=S)o2)cc1)=C(\C)O,H37Rv,-,-,-,EC50,-,>12.5 µg/mL
CO/C(C)=C1/NC(=O)[C@H]([C@@H](C)O)NC(=O)c2csc(n2)-c2cc(O)c(-c3nc(C(=O)NCc4cnn(C)c4)cs3)nc2-c2csc(n2)[C@@H]2COC(=O)c3c4c5c(cccc5n3O)COC(=O)[C@@H](O[C@H]3C[C@](C)(O)[C@H](N(C)C)[C@H](C)O3)[C@@H](OC4)[C@H](NC(=O)c3csc1n3)c1nc(cs1)C(=O)N2,Clinical Isolate 913,-,broth dilution,-,MIC,-,≤10 µM
CCOC(=O)c1cn(CC)c2c(cc([N+](=O)[O-])c3cccnc32)c1=O,BCG,gyrA mutation A90V,-,-,MIC90,-,2.5 µM
NC1[C@H]2CN(c3nc4c(cc3F)c(=O)c(C(=O)O)cn4-c3ccc(F)cc3F)C[C@@H]12,250 isolates,-,-,-,MIC50,-,32 µg/mL
CCOC(=O)c1cn(C)c2c(cc([N+](=O)[O-])c3cccnc32)c1=O,H37Rv,gyrA mutation D94G,-,-,MIC90,-,0.21 µM
CC1=NN(c2ccccc2)C(=O)C1N=Nc1ccc(S(=O)(=O)Nc2occ(C)c2C)cc1,H37Rv,-,BACTEC,-,MIC,-,≥12.8 µg/mL
CCCCCCCCOc1c(C(C)=O)cc(N)c2nccc(CC)c12,H37Rv,-,-,-,MIC,-,>6.25 µg/mL
CCCCCCCCOc1ccc(NC(=O)OCCN2CCCCCC2)cc1,My 331/88,-,-,-,MIC,-,8 µM
CCc1nc2ccccc2n1CCCCSc1nnc(-c2ccc(Cl)cc2)o1,H37Rv,Rv1339 V90M,turbidity / fluorescence,-,MIC90,-,1.5 µM
CCCCCOc1ccc(NC(=O)OCCN2CCCCC2)cc1,My 331/88,-,-,-,MIC,-,32 µM
CC(=O)c1cc(N)c2nc(C(C)(C)C)ccc2c1,H37Rv,-,-,-,MIC,-,>6.25 µg/mL
COC(=O)C1=CO[C@@H](C)[C@@H]2CN3CCc4c([nH]c5ccc(OC)cc45)[C@@H]3C[C@H]12,H37Rv,-,BACTEC,-,MIC,-,≥12.8 µg/mL
CCc1nc2ccc(C)cc2n1CCCCNc1ccc(C)cc1,H37Rv,Rv1339 V90M,turbidity / fluorescence,-,fold resistance,-,0.8
CC1=CC(C)(C)NC(=S)N1c1ccc(N(C)C)cc1,H37Rv,-,resazurin,-,MIC bound,-,>6.25 µg/mL
CCn1c(-c2ccc(N=Nc3c(C)[nH]n(CCO)c3=O)cc2)n[nH]c1=S,H37Rv,-,-,-,EC50,-,>12.5 µg/mL
CC(=O)Oc1ccccc1C(=O)Nc1ncc([N+](=O)[O-])s1,S spoligotype 34,-,visual reading,-,MIC,-,12 µg/mL
CO[C@H]1/C=C/O[C@@]2(C)Oc3c(C)c(O)c4c(O)c(c(/C=N/N5CCN(C6CCCC6)CC5)c(O)c4c3C2=O)NC(=O)/C(C)=C\C=C\[C@H](C)[C@H](O)[C@@H](C)[C@@H](O)[C@@H](C)[C@H](OC(C)=O)[C@@H]1C,Erdman,-,-,-,MIC,-,0.06 µg/mL
COc1ccc(/C=C/C(=O)Oc2ccc(/C=C3\CCCCC3=O)cc2)cc1,H37Rv,-,-,-,EC50,-,>12.5 µg/mL
O=[N+]([O-])c1cccc2cccnc12,H37Rv,-,-,-,inhibition,6.25 µg/mL,0%
CCN(CC)CC(=O)O[C@]1(CC)C(=O)OCc2c1cc1n(c2=O)Cc2cc3ccccc3nc2-1.Cl,H37Rv,-,BACTEC,-,MIC,-,≥12.5 µg/mL
CCc1nc2ccccc2n1CCCNc1ccc(C)cc1,H37Rv,-,turbidity / fluorescence,-,MIC99,-,0.12 µM
O=C1O[C@@H]([C@H](O)[C@H](O)CO)C(O)=C1O,H37Rv,-,-,-,MIC bound,-,>6.25 µg/mL
COc1ccc(C(=O)Oc2ccc(/C=C3\CCCCC3=O)cc2)cc1,H37Rv,-,-,-,inhibition,12.5 µg/mL,51%
NNC(=O)c1ccncc1,MTB25 (S),-,-,-,MIC,-,0.12 µg/mL
CCc1ccnc2c([N+](=O)[O-])cc(C(C)=O)c(OC(C)C)c12,Ethambutol-resistant,-,-,-,MIC,-,50 µg/mL
O=C(CCc1ccccc1)Oc1ccc(/C=C2\CCCCC2=O)cc1,H37Rv,-,-,-,inhibition,12.5 µg/mL,0%
CC(=O)c1cc([N+](=O)[O-])c2nc(C3CCCCC3)ccc2c1C1CCCCC1,H37Rv,-,-,-,inhibition,6.25 µg/mL,0%
Cc1c2oc3c(C)ccc(C(=O)NCCN4CCCC4)c3nc-2c(C(=O)NCCN2CCCC2)c(N)c1=O,H37Rv,-,BACTEC,-,MIC bound,-,>12.5 µg/mL
Cc1[nH]n(-c2ccccc2)c(=O)c1N=Nc1ccc(-c2n[nH]c(=O)n2-c2ccccc2)cc1,H37Rv,-,-,-,MIC,-,>12.5 µg/mL
O=C(NNc1ccccc1)/C(=C/c1ccc2c(c1)OCO2)NC(=O)c1ccccc1,H37Rv,-,BACTEC,-,inhibition,12.5 µg/mL,37%
O=C(/C=C/c1ccc(Br)cc1)Oc1ccc(/C=C2\CCCCC2=O)cc1,H37Rv,-,-,-,inhibition,12.5 µg/mL,3%
Cc1ccsc1/C=N/Nc1cnccn1,H37Rv,-,BACTEC,-,inhibition,12.5 µg/mL,63%
CCCCCCCCCCOc1ccccc1NC(=O)OCCN(C)C,My 331/88,-,-,-,MIC,-,8 µM
C[C@@H]1C[C@H]2CC[C@H](O2)[C@H](C)C(=O)O[C@@H](C)C[C@@H]2CC[C@@H](O2)[C@@H](C)C(=O)O[C@H](C)C[C@H]2CC[C@H](O2)[C@H](C)C(=O)O[C@@H](C)C[C@@H]2CC[C@@H](O2)[C@@H](C)C(=O)O1,H37Rv,-,BACTEC,-,MIC bound,-,≤12.8 µg/mL
Cc1nccn1CCCCOc1ccc(Cl)cc1,H37Rv,-,turbidity / fluorescence,-,MIC99,-,>20 µM
O=[N+]([O-])c1cccc2c(C3CCCC3)cc(C3CCCC3)nc12,Rifampicin-resistant,-,-,-,MIC,-,25 µg/mL
CO[C@H]1/C=C/O[C@@]2(C)Oc3c(C)c(O)c4c(O)c(c(/C=N/N5CCN(C)CC5)c(O)c4c3C2=O)NC(=O)/C(C)=C\C=C\[C@H](C)[C@H](O)[C@@H](C)[C@@H](O)[C@@H](C)[C@H](OC(C)=O)[C@@H]1C,PR1282,-,-,-,MIC,-,0.08 µg/mL
C=C(NC(=O)c1csc(-c2nc3c(cc2O)-c2nc(cs2)C(=O)N[C@@H]([C@@H](C)O)C(=O)N/C(=C(\C)OC)c2nc(cs2)C(=O)N[C@@H]2c4nc(cs4)C(=O)N[C@@H](COC(=O)c4c5c6c(cccc6n4O)COC(=O)[C@@H](O[C@H]4C[C@](C)(O)[C@H](N(C)C)[C@H](C)O4)[C@H]2OC5)c2nc-3cs2)n1)C(N)=O,Clinical isolate 11677,-,broth dilution,-,MIC,-,≤25 µM
CCOc1ccccc1NC(=O)OCCN(C)C,My 331/88,-,-,-,MIC,-,1000 µM
CCN=c1cc2n(-c3ccc(C(F)(F)F)cc3)c3ccccc3nc-2cc1Nc1ccc(C(F)(F)F)cc1,14,-,-,multidrug-resistant,MIC,-,≤0.06 µg/mL
CCCCCCCCOc1cccc(NC(=O)OCCN2CCOCC2)c1,My 331/88,-,-,-,MIC,-,16 µM
NNC(=O)c1cnn(-c2ccccc2)c1N,H37Rv,-,BACTEC,-,inhibition,12.5 µg/mL,8%
CCn1c(-c2ccc(N=Nc3c(C)[nH][nH]c3=O)cc2)n[nH]c1=S,H37Rv,-,-,-,inhibition,12.5 µg/mL,0%
CO/C(C)=C1/NC(=O)[C@H]([C@@H](C)O)NC(=O)c2csc(n2)-c2cc(O)c(-c3nc(C(=O)NCCCN4CCOCC4)cs3)nc2-c2csc(n2)[C@@H]2COC(=O)c3c4c5c(cccc5n3O)COC(=O)[C@@H](O[C@H]3C[C@](C)(O)[C@H](N(C)C)[C@H](C)O3)[C@@H](OC4)[C@H](NC(=O)c3csc1n3)c1nc(cs1)C(=O)N2,Clinical Isolate 913,-,broth dilution,-,MIC,-,≤2.5 µM
CC1=C(C)C(=O)O[C@H]([C@](C)(O)[C@]2(O)CC[C@@]3(O)[C@@H]4C[C@H](Cl)[C@]5(O)[C@@H](O)C=CC(=O)[C@]5(C)[C@H]4CC[C@]23C)C1,H37Rv,-,BACTEC,-,MIC,-,≥12.5 µg/mL
CO[C@H]1/C=C/O[C@@]2(C)Oc3c(C)c(O)c4c(=O)c(c5oc6cc(N7CCN(C(C)C)CC7)cc(=O)c6nc5c4c3=C2O)NC(=O)/C(C)=C\C=C\[C@H](C)[C@H](O)[C@@H](C)[C@@H](O)[C@@H](C)[C@H](OC(C)=O)[C@@H]1C,2847 (rifampin-sensitive),-,-,-,MIC,-,0.05 µg/mL
COC1C(O)=C2C(=O)OC(C)(O)/C=C/C=C/C=C/C=C\C(c3ccccc3)NC(=O)/C=C/C=C/C=C/C=C/C2(C)C1O,KM-R,-,-,-,MIC,-,>12.5 µg/mL
CCc1ccnc2c(N)cc(C(C)=O)c(OC(C)C)c12,H37Rv,-,-,-,MIC,-,>6.25 µg/mL
Cc1cc(=O)c(CO)n[nH]1,H37Rv,-,BACTEC,-,inhibition,12.5 µg/mL,0%
N[C@@H]1CN(c2c(F)cc3c(=O)c(C(=O)O)cn([C@@H]4C[C@@H]4F)c3c2Cl)CC12CC2,Clinical strain,MDR (rifampicin- isoniazid-resistant),resazurin,-,MIC90,-,0.0625 µg/mL
S=C(S)NN1CCCC1,PZA-R,-,-,-,MIC,-,0.8 µg/mL
CO/C(C)=C1/NC(=O)[C@H]([C@@H](C)O)NC(=O)c2csc(n2)-c2cc(O)c(-c3nc(C(=O)NNC(=O)c4cc(-c5ccco5)[nH]n4)cs3)nc2-c2csc(n2)[C@@H]2COC(=O)c3c4c5c(cccc5n3O)COC(=O)[C@@H](O[C@H]3C[C@](C)(O)[C@H](N(C)C)[C@H](C)O3)[C@@H](OC4)[C@H](NC(=O)c3csc1n3)c1nc(cs1)C(=O)N2,H37Rv,-,broth dilution,-,MIC,-,>100 µM
CC(C)=C1C=C2CC[C@@H]3[C@](C)(CCC[C@@]3(C)C(=O)O)[C@H]2CC1,H37Rv,-,BACTEC,-,MIC bound,-,>12.5 µg/mL
Cc1[nH]n(-c2ccccc2)c(=O)c1N=Nc1ccc(-c2n[nH]c(=S)n2-c2ccccc2)cc1,H37Rv,-,-,-,MIC,-,>12.5 µg/mL
CCOC(=O)c1c(O)cn2c1[nH]c1cccc3cccc2c31,H37Rv,-,resazurin,-,inhibition,6.25 µg/mL,-5%
CC1COc2c(N3CCN(C)CC3)c(F)cc3c(=O)c(C(=O)O)cn1c23,SMI 21,-,BACTEC,-,MIC,-,0.5 µg/mL